Experimental data: PubChem BioAssay AID504761 (Drosophila RNAi Screening Center, 2011)

Aim: 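Genome-wide fly cell screen for genes dengue virus requires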 (primary screen)
System: D.Mel-2 cells from Drosophila
Reagents: long dsRNA against Drosophila genes
Challenge: infection with dengue virus type 2; dose and infection time not stated
Read-out: 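Per well on two replicate plates, imaging gave the percent of cells positive for viral envelope protein, ranked by infection, and a nuclear count of cells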
Direction: infection score: higher = more virus-infected cells; cell count: higher = more cells in the well
Rule for the call: 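Very low infection ranking in both replicate wells (chance probability at most 0.065), then a retest showing infection dropped 1.5-fold or more at p below 0.05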
Meaning of the calls: active = confirmed: knock-down lowers infection; inactive = not picked or not confirmed
The screen tested about 22,000 reagents; shown is an unselected part of those that have a named target and a result. Over the whole deposit, 116 (0.52%) were called active. 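Calls depend on retest data that are not deposited; infection was ranked per plate without normalising between plates; the unit of the infection score is not given.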 Raw values vary from plate to plate and are shown uncorrected. Reagents against one gene are numbered here. Further read-outs or replicates are left out here. No sequences are given here. Not given: the amount of reagent, the time to read-out.

For CG12017 #1, the values are infection score, replicate 1 = 2.39; cell count, replicate 1 = 6472; inactive.
For CG12017 #2 the deposit lists infection score, replicate 1 = 12; cell count, replicate 1 = 5380; inactive.
With knock-down of dsx-c73A #1 the results were infection score, replicate 1 = 0.41; cell count, replicate 1 = 6129; inactive.
After knock-down of dsx-c73A #2, the screen gave infection score, replicate 1 = 2.44; cell count, replicate 1 = 6023; inactive.
For dsx-c73A #3, the values are infection score, replicate 1 = 2.31; cell count, replicate 1 = 6323; inactive.
Silencing of CG9231 resulted in: infection score, replicate 1 = 9.24; cell count, replicate 1 = 6299; inactive.
For CG7556 #1, the values are infection score, replicate 1 = 2.33; cell count, replicate 1 = 6395; inactive.
CG7556 #2 gave infection score, replicate 1 = 2.16; cell count, replicate 1 = 6154; inactive.
Against Hil #1 the deposit lists infection score, replicate 1 = 1.55; cell count, replicate 1 = 6514; inactive.
For Hil #2, the values are infection score, replicate 1 = 2.99; cell count, replicate 1 = 5978; inactive.
Silencing of CG42633 came out at: infection score, replicate 1 = 4.22; cell count, replicate 1 = 6369; inactive.

Ordered by “infection score, replicate 1” (low to high): 2 of the entries above
dsx-c73A #1 — infection score, replicate 1: 0.41; cell count, replicate 1: 6129; activity call: inactive
CG12017 #2 — infection score, replicate 1: 12; cell count, replicate 1: 5380; activity call: inactive

Further reagents follow.
With knock-down of CG16824, the record shows infection score, replicate 1 = 3.67; cell count, replicate 1 = 6137; inactive.
Depletion of CG17287 gave: infection score, replicate 1 = 17.9; cell count, replicate 1 = 4456; inactive.
For Ir52d the deposit lists infection score, replicate 1 = 6.98; cell count, replicate 1 = 6177; inactive.
With knock-down of Mcm5 #1 the results were infection score, replicate 1 = 5.67; cell count, replicate 1 = 5999; inactive.
Knock-down of Mcm5 #2 resulted in: cell count, replicate 1 = 371; inactive.
With knock-down of CG17593 #1, the screen gave infection score, replicate 1 = 9.22; cell count, replicate 1 = 5931; inactive.
CG17593 #2 scored infection score, replicate 1 = 3.33; cell count, replicate 1 = 6495; inactive.
For nyo #1, the values are cell count, replicate 1 = 342; inactive.
nyo #2 gave infection score, replicate 1 = 6.34; cell count, replicate 1 = 2825; inactive.
Knock-down of Gba1b gave: infection score, replicate 1 = 1.15; cell count, replicate 1 = 5922; inactive.
